Target: T1, secreted E1E2 with c-Fos/c-Jun leucine zipper scaffold (sE1E2.LZ) (Hepatitis C virus H77; human, limits assumed)
T1 construct: It is written here as the two chains expected after furin cleavage
T1 chain 1: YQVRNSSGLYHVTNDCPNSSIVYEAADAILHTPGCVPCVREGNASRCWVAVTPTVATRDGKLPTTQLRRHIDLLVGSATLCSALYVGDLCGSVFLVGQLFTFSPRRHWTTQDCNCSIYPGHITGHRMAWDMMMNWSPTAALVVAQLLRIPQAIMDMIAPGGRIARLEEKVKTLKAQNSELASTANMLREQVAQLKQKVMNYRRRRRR
T1 chain 2: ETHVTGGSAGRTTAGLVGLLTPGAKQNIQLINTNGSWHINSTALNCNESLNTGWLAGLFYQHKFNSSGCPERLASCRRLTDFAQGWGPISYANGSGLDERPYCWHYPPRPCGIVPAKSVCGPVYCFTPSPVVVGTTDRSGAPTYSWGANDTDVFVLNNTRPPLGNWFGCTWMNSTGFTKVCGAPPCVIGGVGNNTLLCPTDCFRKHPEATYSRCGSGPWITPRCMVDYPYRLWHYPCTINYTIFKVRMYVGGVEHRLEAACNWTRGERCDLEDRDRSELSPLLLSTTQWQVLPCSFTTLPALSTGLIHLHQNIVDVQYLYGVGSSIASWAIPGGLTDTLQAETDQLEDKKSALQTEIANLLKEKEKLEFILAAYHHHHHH
Experiment: dose-dependent ELISA, antigen captured by GNA lectin

B1: HC84.26 (antibody, V domains shown)
VH: QVQLVQSGAEVKKPGSSVKVSCEASGGTLSNYVITWVRQAPGQGLEWMGGFIPTFRTAMYAQGFQGRVTITADESTSIAYMELTNLRSEDTAVYYCARGPLSRGYYDYWGQGTLVTVSS
VL: SYVLTQPPSVSVAPGKTARITCGGNNIGSKSVHWYQQKPGQAPVLVVYDDSDRPSGIPERFSGSNSGNTATLTISRVEAGDEADYYCQVWDSSSVVFGGGTKLTVL
Kd: 2.6 nM

Reference: patent publication US20240016923A1 (UNIVERSITY OF MARYLAND COLLEGE PARK, published 2024)
